Measured values: paper PMC10195822
The exact form of at least one protein or probe is not confirmed. Where cells or extracts were used, other partners may take part. For part of these data: Negatives hold for the conditions tested. For part of these data: At least one verdict rests on a figure or table, not on a statement of the authors. For part of these data: Where a protein sequence is shown, tags need not be part of it.

The chains behind the UniProt entries cited, without tags or fusion partners. Where a name states a change or a piece, a line headed by the entry shows the natural chain unless it says otherwise.
UniProt Q64705: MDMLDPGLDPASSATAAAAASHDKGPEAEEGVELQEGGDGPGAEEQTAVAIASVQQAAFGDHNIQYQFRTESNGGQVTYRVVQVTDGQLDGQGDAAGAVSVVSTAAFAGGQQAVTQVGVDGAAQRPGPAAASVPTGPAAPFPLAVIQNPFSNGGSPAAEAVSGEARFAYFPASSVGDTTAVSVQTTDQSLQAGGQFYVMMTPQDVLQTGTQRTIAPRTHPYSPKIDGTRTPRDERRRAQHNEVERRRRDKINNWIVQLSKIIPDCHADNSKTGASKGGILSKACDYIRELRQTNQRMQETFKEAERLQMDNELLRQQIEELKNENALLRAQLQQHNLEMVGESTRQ
UniProt Q61069: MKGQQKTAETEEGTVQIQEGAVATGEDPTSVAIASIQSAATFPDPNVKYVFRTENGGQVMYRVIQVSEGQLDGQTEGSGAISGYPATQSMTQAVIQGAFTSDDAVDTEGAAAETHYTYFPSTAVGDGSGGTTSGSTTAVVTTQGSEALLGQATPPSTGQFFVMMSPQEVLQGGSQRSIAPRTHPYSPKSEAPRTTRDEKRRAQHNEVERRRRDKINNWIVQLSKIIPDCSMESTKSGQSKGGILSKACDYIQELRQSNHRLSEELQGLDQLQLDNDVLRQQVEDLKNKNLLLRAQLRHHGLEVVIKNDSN
UniProt P42227, whole entry: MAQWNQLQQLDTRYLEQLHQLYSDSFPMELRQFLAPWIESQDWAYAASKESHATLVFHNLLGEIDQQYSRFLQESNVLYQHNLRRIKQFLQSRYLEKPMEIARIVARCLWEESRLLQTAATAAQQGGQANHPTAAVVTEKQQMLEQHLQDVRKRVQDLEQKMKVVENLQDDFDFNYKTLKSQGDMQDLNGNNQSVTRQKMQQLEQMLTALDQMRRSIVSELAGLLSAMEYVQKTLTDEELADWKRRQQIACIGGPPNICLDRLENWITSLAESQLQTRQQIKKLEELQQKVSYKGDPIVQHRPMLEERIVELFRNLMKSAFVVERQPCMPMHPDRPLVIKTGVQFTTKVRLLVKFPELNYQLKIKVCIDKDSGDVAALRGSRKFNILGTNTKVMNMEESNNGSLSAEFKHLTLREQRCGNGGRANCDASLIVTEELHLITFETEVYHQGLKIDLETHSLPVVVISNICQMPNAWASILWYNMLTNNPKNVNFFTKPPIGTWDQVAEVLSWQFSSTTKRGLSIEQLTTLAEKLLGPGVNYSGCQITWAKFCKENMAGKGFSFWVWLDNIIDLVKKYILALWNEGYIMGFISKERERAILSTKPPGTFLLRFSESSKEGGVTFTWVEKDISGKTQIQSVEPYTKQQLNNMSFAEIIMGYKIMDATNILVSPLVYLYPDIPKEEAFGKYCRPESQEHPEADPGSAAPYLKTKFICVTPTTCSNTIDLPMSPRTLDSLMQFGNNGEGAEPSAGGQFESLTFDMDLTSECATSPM

Tests used:
Assay in all cases: DNA pull-down + immunoblot
USF2 = USF2 (UniProt Q64705); details: LDPm-infected BMDC nuclear extract, 24 h; protein in an extract; label: biotin (pull-down), 32P (EMSA)
USF1 = USF1 (UniProt Q61069); details: LDPm-infected BMDC nuclear extract, 24 h; protein in an extract; label: biotin (pull-down), 32P (EMSA)
STAT3 = STAT3 (UniProt P42227); details: LDPm-infected BMDC nuclear extract, 0.5 h; protein in an extract; label: biotin (pull-down), 32P (EMSA)
Ets1 = target: T1, Ets1 (UniProt P27577); details: LDPm-infected BMDC nuclear extract, 24 h; protein in an extract; label: biotin (pull-down), 32P (EMSA)
T1 sequence (looked up, limits assumed): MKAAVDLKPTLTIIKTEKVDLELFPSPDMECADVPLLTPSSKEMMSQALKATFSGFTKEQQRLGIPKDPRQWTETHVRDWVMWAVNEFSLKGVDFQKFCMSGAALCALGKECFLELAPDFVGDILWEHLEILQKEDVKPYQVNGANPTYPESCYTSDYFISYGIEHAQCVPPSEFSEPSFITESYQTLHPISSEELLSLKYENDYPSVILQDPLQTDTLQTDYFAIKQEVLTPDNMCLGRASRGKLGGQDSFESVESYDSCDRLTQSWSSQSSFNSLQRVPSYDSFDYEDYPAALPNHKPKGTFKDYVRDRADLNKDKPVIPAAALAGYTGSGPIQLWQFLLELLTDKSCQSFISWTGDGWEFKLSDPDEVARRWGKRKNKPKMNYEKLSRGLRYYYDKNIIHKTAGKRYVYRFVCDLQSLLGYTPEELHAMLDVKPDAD

Ets2 = target: T2, Ets2 (UniProt P15037); details: LDPm-infected BMDC nuclear extract, 24 h; protein in an extract; label: biotin (pull-down), 32P (EMSA)
T2 sequence (looked up, limits assumed): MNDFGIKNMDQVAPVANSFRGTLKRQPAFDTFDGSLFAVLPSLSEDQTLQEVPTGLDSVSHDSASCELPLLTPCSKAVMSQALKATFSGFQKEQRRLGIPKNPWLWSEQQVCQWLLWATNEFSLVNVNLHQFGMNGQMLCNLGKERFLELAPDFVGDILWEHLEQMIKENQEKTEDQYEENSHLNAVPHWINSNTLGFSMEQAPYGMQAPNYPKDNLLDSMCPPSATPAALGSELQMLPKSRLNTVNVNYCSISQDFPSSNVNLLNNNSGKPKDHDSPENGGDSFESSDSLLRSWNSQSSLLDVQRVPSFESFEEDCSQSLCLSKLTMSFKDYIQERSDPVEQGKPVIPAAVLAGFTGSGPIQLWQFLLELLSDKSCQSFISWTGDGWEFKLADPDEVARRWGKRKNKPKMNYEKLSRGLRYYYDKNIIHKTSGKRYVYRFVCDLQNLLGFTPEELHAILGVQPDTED

Sequence: AGTACTAACGTGGTAATC (double strand) [USF-Pr]
- binding result (USF2): binds
- binding result (USF1): binds

Sequence: CAAAAACCTTTGCCAAATCGGCCCCACTGAG (double strand) [Mut-Pr]
- binding result (STAT3): no binding

Sequence: CAAAAACCTTTGCCAGGAAGGCCCCACTGAG (double strand) [Pr]
- binding result (STAT3): binds

Sequence: TCACTGGAGGTCAGACATCCTGGGG (double strand) [Ets-Pr]
- binding result (Ets1): binds
- binding result (Ets2): binds
